Experimental data from PMC7327168.

The chains behind the UniProt entries cited, without tags or fusion partners.
UniProt P45684, whole entry: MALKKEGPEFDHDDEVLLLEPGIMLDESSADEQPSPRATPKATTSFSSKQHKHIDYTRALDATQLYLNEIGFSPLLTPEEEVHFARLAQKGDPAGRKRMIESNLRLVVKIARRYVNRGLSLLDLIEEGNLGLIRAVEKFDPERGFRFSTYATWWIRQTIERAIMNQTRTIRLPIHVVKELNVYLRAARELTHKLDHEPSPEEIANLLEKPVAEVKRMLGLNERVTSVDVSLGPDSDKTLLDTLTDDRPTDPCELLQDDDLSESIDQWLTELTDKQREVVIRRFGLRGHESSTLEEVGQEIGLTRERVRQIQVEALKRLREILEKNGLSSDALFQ

Molecular target: RpoS (UniProt P45684)
Experiment: EMSA
Settings: 100 ng DNA, 30 min; RNA EMSA: 10 mM Tris-HCl pH 7.5, 5 mM MgCl2, 50 mM KCl, 10% glycerol, 1 U RNase inhibitor, on ice 30 min, 8% native PAGE 0.5x TBE; recombinant protein; protein details: 6xHis; probe letters rebuilt from the primers and the genome

## GCCTGCGAGCGGTAGTCTGATCGGCCGTTTTGCCTCAAACGGAAGTTTGAATAAAGGGATTGATATAGCCGGTCAATTGGGCCAGCCTGTCCTGGCTGCGTCTGGTGGGACCGTTGTATACGCCGGTAGTGGTTTGCGGGGCTACGGCGAGTTGGTCATCATCAAACACAACGAGACCTACGTGAGTGCCTACGGTCACAACCGCAGGCTGCTGGTGCGGGAAGGGCAACAGGTCAAGGTAGGGCAATCGATTGCCGAGATGGGCTCCACAGGAACCGATCGGGTGAAGCTGCACTTCGAGATTCGCCGCCAGGGTAAGCCTGTCGATCCACTGCAATATTTGCCACGTCGCTGACCGGGAGTTCGCCCGCCCACATCATGTAGGTGAGCGGGTCCGGGCGTGTCCAGCGGGAAAGGAATCGCCCGGGCTTGAGTCGAACTCATGCAAGGGATAACGACATGGCACTCAAAAAAGAAGGGCCGGAGTTTGACCACGATGATGAAGTGCTCCTCCTGGAGCCCGGCATCATGCTGGACGAGT (double strand) [Pro-rpoS (rpoS promoter fragment)]
  binding result: binds

For at least one entry, the source does not settle the construct or the ends of the probe.
